End groups of sequences in plain letters are not given here.

16 sequences from publication PMC10221074 (Toxins, 2023) can be followed below.

A short description of this data set: peptide made by a vendor. Conditions: whole synthesis, HPLC and mass spectrometry by the supplier, scale of the general procedure 10 mg of each peptide.
As to DVVKSKVGQT, the “purity (crude or final not stated)” value came to 98.6%.

Regarding SLFGLLDLVKSKVGQTGLL, the “purity (crude or final not stated)” value is on record as 82.0%.

SLLGLLDVVKNKVGQI: the “purity (crude or final not stated)” value was found to be 87.8%.

With SLLGLLDVVKNKVGQIGLL, the “purity (crude or final not stated)” value is reported as 96.8%.

In the case of SLLGLLDVVKSKIGQTG, the “purity (crude or final not stated)” value is on record as 90.6%.

Regarding GSLLGLLDVVKSKVGQTGLL, the “purity (crude or final not stated)” value turned out to be 89.4%.

For SLLGLLDVVKNTVGQTGLL, the “purity (crude or final not stated)” value is reported as 70.5%.

On to SLLGLLDVVKNKVGQIG, for which the “purity (crude or final not stated)” value was 97.3%.

For the sequence SLLGLLDVVKSKIGQTGLL, the “purity (crude or final not stated)” value stood at 83.9%.

For the sequence SLLGLLDVVKSKIGQT, the “purity (crude or final not stated)” value was 80.3%.

Take SLLGLLDVVKNTVGQ: the “purity (crude or final not stated)” value turned out to be 93.4%.

For the sequence LLDVVKSKIGQTGLL, the “purity (crude or final not stated)” value turned out to be 92.0%.

For the sequence SLFGLLDLVKNKVGQTGLL, the “purity (crude or final not stated)” value is 93.5%.

Turning to SLLGLLDVVKNTVGQT, the “purity (crude or final not stated)” value was 95.7%.

Consider SLLGLLDVVKSKVGQTGLL, for which the “purity (crude or final not stated)” value stood at 95.4%.

On to SLLGLLDVVKNTVGQTG, for which the “purity (crude or final not stated)” value is on record as 82.4%.
